The experiment concerns the target SARS-CoV-2 B.1.617.2假病毒的刺突Δ19 (SARS-CoV-2). In words: cell-based or functional assay.

B1: S-B2二聚体 (antibody, V domains shown)
VH: QVQLQESGGGVVQPGRSLRLSCAASGFTFSSYAMHWVRQAPGKGLEWVAVISYDGSNKYYADSVKGRFTISRDNSKNTLYLQMNSLRAEDTAVYYCARDYGDYLLDYWGQGTLVTVSS
VL: LSALTQPASASGSPGQSVTISCTGTSSDVGGYNYASWYQQHPGKAPKLLIYEVTKRPSGVPDRFSSSKSGNTASLTVSGLQAEDEADYYCSSYTGTLLLFGGGTKLTVL
B1: the “NT50(B.1.617.2)” value came out at 0.23 nM.

B2: S-D9二聚体 (antibody, V domains shown)
VH: QVQLVQSGAELKKPGESLKISCTASGYSFTNYWIAWVRQMPGKGLEWMGIVNPADSDTRYSPAFQGQVTMSADKSFNTAYLQWSRLKASDTAMYYCARLGQDHNSGWYTYFHPMDVWGQGTTVTVSS
VL: QSALTQPASVSGSPGQSITISCTGTRSDVGGYNYVSWYQQHPGKAPKLLIFGVNDRPSGVSDRFSGSRTGNTASLTISGLQPEDEADYYCSSFTRGTTLLVFG
As for B2, the “NT50(B.1.617.2)” value was found to be 0.24 nM.

The values above are taken from CN116406375A, “抗SARS-CoV-2刺突蛋白的三聚体抗体” (UNIV SHANGHAI TECHNOLOGY, dated 2023).
